Patent US20100242341A1, “CORROSION AND MICROBIAL CONTROL IN HYDROCARBONACEOUS COMPOSITIONS” (priority 2007, published 2010)

Assay: Corrosion testing of metal coupons immersed in fuel/water
Details: aminoalcohol 0.427%, 50° C.

For CCCCC(O)C(N)CC (stereo not drawn) [Example 3A4O, 3-amino-4-octanol], the “Corrosion (visual)” value (CI, Biodiesel 80%/water 20%) was “Yes”, the “Wt Loss” value (CI, Biodiesel 80%/water 20%) was -0.0400 g and the “Corrosion (visual)” value (CI, Diesel 80%/water 20%) was “Yes”. The “Wt Loss” value (CI, Diesel 80%/water 20%) was -0.0008 g, the “Corrosion (visual)” value (LCFGS, Biodiesel 80%/water 20%) was “No” and the “Wt Loss” value (LCFGS, Biodiesel 80%/water 20%) was -0.0260 g. For the same compound, the “Corrosion (visual)” value (LCFGS, Diesel 80%/water 20%) was “No”, the “Wt Loss” value (LCFGS, Diesel 80%/water 20%) was -0.0024 g and the “Corrosion (visual)” value (MCS, Biodiesel 80%/water 20%) was “No”. For the same compound, the “Wt Loss” value (MCS, Biodiesel 80%/water 20%) was -0.0113 g, the “Corrosion (visual)” value (MCS, Diesel 80%/water 20%) was “No” and the “Wt Loss” value (MCS, Diesel 80%/water 20%) was 0.0000 g.
